Compound potency records, mixed from different reports. Data source: NIAID ChemDB in PubChem.

Common to all: tests on isolated targets

Fold resistance has wild type as its base. Lines come from different laboratories, so protocols vary. ICn is the concentration giving n% inhibition. a–b is a range or a potency band. Inhibition is in % at the dose shown (toxicity tests: loss of growth or viability). An empty or dashed field is not shown.

| SMILES | dose | protein | method | strain or isolate | mutations | organism | endpoint | value |
|---|---|---|---|---|---|---|---|---|
| COc1cc(NS(=O)(=O)c2ccc(N)cc2)nc(OC)n1 | - | DHPS | - | - | - | Pneumocystis carinii | IC50 | 0.025 µM |
| CCN(Cc1ccccc1)C(=O)Nc1ccsc1-c1nc(C(=O)O)c(O)c(=O)[nH]1 | - | HCV polymerase | - | - | - | Hepatitis C virus | IC50 | <25 µM |
| CC1(C)OC(=O)/C(=C/C(=O)c2cn(Cc3ccc(F)cc3)c3ccc(Br)cc23)O1 | - | Integrase | strand transfer / fluorescence | - | - | HIV-1 | IC50 | 10.7 µM |
| O=C(/C=C/c1ccccc1Cl)Nc1nnc(NCCCN2CCCC2=O)s1 | - | Polymerase | - | - | - | Human cytomegalovirus | IC50 | >25 µM |
| CCOC(=O)C(C(=O)OCC)c1cn(S(=O)(=O)c2ccc(C)cc2)c2ccc(NC(=O)c3ccc(OC)cc3)cc12 | - | Integrase | strand transfer / fluorescence | - | G140S | HIV-1 | fold resistance | 1 |
| O=C(Nc1nnc(NC2CCCCCC2)s1)c1ccc(S(=O)(=O)F)cc1 | - | Polymerase | - | - | - | Human cytomegalovirus | IC50 | >25 µM |
| O=C(O)c1nc(-c2sccc2NS(=O)(=O)c2cc(Cl)c(Cl)cc2Cl)[nH]c(=O)c1O | - | HCV polymerase | - | - | - | Hepatitis C virus | IC50 | <25 µM |
| NC(=O)c1ncn([C@@H]2O[C@H](COC(=O)c3ccc(S(=O)(=O)F)cc3)[C@@H](O)[C@H]2O)n1 | 300 µM | NTPase/helicase | - | - | - | West Nile virus | inhibition | 47% |
| COc1ccc(CC2CCc3nc(N)nc(N)c3C2)cc1 | - | Dihydrofolate reductase | - | - | - | Cryptosporidium parvum | IC50 | 0.53 µM |
| O=C(Nc1nnc(NCCCN2CCCC2=O)s1)c1ccc(S(=O)(=O)F)cc1 | - | Polymerase | - | - | - | Human cytomegalovirus | IC50 | >25 µM |
| N#CCCn1c2ccc(O)cc2c2c3c(c4c5cc(O)ccc5[nH]c4c21)C(=O)NC3 | - | cAMP-dependent protein kinase | - | - | - | - | IC50 | 0.48 µM |
| CC(C)(C)OC(=O)Nc1sccc1-c1nc(C(=O)O)c(O)c(=O)[nH]1 | - | HCV polymerase | - | - | - | Hepatitis C virus | IC50 | <25 µM |
| Nc1ccc(S(=O)(=O)Nc2cnc3ccccc3n2)cc1 | - | DHPS | - | - | - | Pneumocystis carinii | IC50 | 0.03 µM |
| O=C(OC[C@H]1O[C@@H](n2cnc3c(=O)[nH]cnc32)[C@H](O)[C@@H]1O)c1ccc(S(=O)(=O)F)cc1 | 300 µM | NTPase/helicase | - | - | - | Dengue virus | inhibition | 17% |
| COCON1C(=O)[C@H]([C@H](OS(C)(=O)=O)c2ccc(OC)cc2)N(Cc2ccc(OC)cc2)[C@@H](CC(C)C)C1=O | - | Transcriptase | - | - | - | Influenza A virus | IC50 | >200 µM |
| Cc1ccc(C(C)NC(=O)Nc2cccc(-c3nc(C(=O)O)c(O)c(=O)[nH]3)c2)c(C)c1 | - | HCV polymerase | - | - | - | Hepatitis C virus | IC50 | <100 µM |
| COc1cc(Cc2sc3nc(N)nc(N)c3c2C)c(Br)c(OC)c1OC | - | Dihydrofolate reductase | - | - | - | Cryptosporidium parvum | IC50 | 10.2 µM |
| CCC1CCC(C(=O)N(c2cc(-c3ccccc3)sc2C(=O)O)C(C)C)CC1 | - | NS3 ATPase | - | - | - | Hepatitis C virus | IC50 | <5 µM |
| COCON1C(=O)[C@H]([C@@H](O)C(C)C)N(Cc2ccc(OC)cc2)[C@@H](Cc2ccccc2)C1=O | - | Transcriptase | - | - | - | Influenza A virus | IC50 | >200 µM |
| O=C(O)c1sc(-c2ccccc2)cc1NS(=O)(=O)c1ccc(Cl)s1 | - | NS3 ATPase | - | - | - | Hepatitis C virus | IC50 | <5 µM |
| O=C(CCc1ccccc1)Nc1ccsc1-c1nc(C(=O)O)c(O)c(=O)[nH]1 | - | HCV polymerase | - | - | - | Hepatitis C virus | IC50 | <25 µM |
| CCC(CC)Nc1cc(C(=O)O)ccc1N1C(=O)CCC1(CO)CCN | - | Neuraminidase | - | B/LEE | - | Influenza B virus | IC50 | >1000 µM |
| CC(O)/C=C/c1ccc2c(c1)c(C(=O)/C=C1\OC(C)(C)OC1=O)cn2Cc1ccc(F)cc1 | - | Integrase | strand transfer / fluorescence | - | G140S | HIV-1 | fold resistance | 0.8 |
| Cc1cc(-c2nc(C(=O)O)c(O)c(=O)[nH]2)ccc1Br | - | HCV polymerase | - | - | - | Hepatitis C virus | IC50 | <100 µM |
| Cc1ccc(S(=O)(=O)n2cc(C(C(=O)O)C(=O)O)c3cc(NC(=O)c4ccc(F)cc4)ccc32)cc1 | - | Integrase | strand transfer / fluorescence | - | - | HIV-1 | IC50 | >25 µM |
| COCON1C(=O)[C@H]([C@H](O)C(C)C)N(Cc2ccc(OC)cc2)[C@@H](CC(C)C)C1=O | - | Transcriptase | - | - | - | Influenza A virus | IC50 | >200 µM |
| COC(O)/C=C/c1ccc2c(c1)c(C(=O)/C=C1\OC(C)(C)OC1=O)cn2Cc1ccc(F)cc1 | - | Integrase | strand transfer / fluorescence | - | G140S | HIV-1 | IC50 | 11.3 µM |
| Cc1cc(-c2nc(C(=O)O)c(O)c(=O)[nH]2)no1 | - | HCV polymerase | - | - | - | Hepatitis C virus | IC50 | <100 µM |
| CC(=O)NS(=O)(=O)c1ccc(NC(=O)c2ccccc2C(=O)O)cc1 | - | DHPS | - | - | - | Pneumocystis carinii | IC50 | >10 µM |
| CC1(C)OC(=O)/C(=C/C(=O)c2c[nH]c3ccc(Br)cc23)O1 | - | Integrase | strand transfer / fluorescence | - | Y143R | HIV-1 | fold resistance | 1 |
| Nc1ccc(S(=O)(=O)NC(=O)c2ccccc2)cc1 | - | DHPS | - | - | - | Pneumocystis carinii | IC50 | 0.32 µM |
| CCCCCCCC/C=C/CCCCCCCC(=O)Nc1nnc(NCc2ccco2)s1 | - | Polymerase | - | - | - | Human cytomegalovirus | IC50 | >25 µM |
| CCOC(=O)C(C(=O)OCC)c1cn(S(=O)(=O)c2ccc(C)cc2)c2ccc(NC(=O)c3cccc(C)c3O)cc12 | - | Integrase | strand transfer / fluorescence | - | G140S | HIV-1 | IC50 | 22.9 µM |
| COCON1C(=O)/C(=C\C(C)C)N(Cc2ccc(OC)cc2)[C@@H](CC(C)C)C1=O | - | Transcriptase | - | - | - | Influenza A virus | IC50 | >200 µM |
| CC1(C)OC(=O)/C(=C/C(=O)c2cn(Cc3cc(F)ccc3F)c3ccc(F)cc23)O1 | - | Integrase | strand transfer / fluorescence | - | Y143R | HIV-1 | fold resistance | 1 |
| CC1CCC(C(=O)N(c2cc(-c3ccc(F)cc3)sc2C(=O)O)C(C)C)CC1 | - | NS3 ATPase | - | - | - | Hepatitis C virus | IC50 | <5 µM |
| COc1ccc(OC)c(NCc2ccc3nc(N)nc(N)c3c2Cl)c1 | - | Dihydrofolate reductase | - | - | - | Cryptosporidium parvum | IC50 | 0.2 µM |
| COCON1C(=O)/C(=C\C(C)C)N(Cc2ccc(OC)cc2)[C@@H](Cc2ccccc2)C1=O | - | Transcriptase | - | - | - | Influenza A virus | IC50 | >200 µM |
| Cc1ccccc1S(=O)(=O)Nc1cc(-c2cccc(OC(F)(F)F)c2)sc1C(=O)O | - | NS3 ATPase | - | - | - | Hepatitis C virus | IC50 | 5–20 µM |
| O=C1NCc2c1c1c3ccccc3[nH]c1c1[nH]c3ccccc3c21 | - | Myosin light-chain kinase | - | - | - | - | IC50 | 420 µM |
| Cc1ccccc1S(=O)(=O)Nc1cc(-c2ccc(C#N)cc2)sc1C(=O)O | - | NS3 ATPase | - | - | - | Hepatitis C virus | IC50 | <5 µM |
| O=C(Nc1ccsc1-c1nc(C(=O)O)c(O)c(=O)[nH]1)c1ccccc1Oc1ccccc1 | - | HCV polymerase | - | - | - | Hepatitis C virus | IC50 | <25 µM |
| COc1ccc(NS(=O)(=O)c2ccc(N)cc2)nn1 | - | DHPS | - | - | - | Pneumocystis carinii | IC50 | <0.05 µM |
| O=C(Nc1nnc(NCc2cccs2)s1)c1ccc2c(c1)C(=O)OC2=O | - | Polymerase | - | - | - | Human cytomegalovirus | IC50 | <25 µM |
| Cn1c2ccccc2c2c3c(c4c5ccccc5n(CC(F)F)c4c21)CNC3=O | - | Tyrosine kinase | - | - | - | - | IC50 | >10 µM |
| COc1cc(CNc2ccc3nc(N)nc(N)c3c2Cl)cc(OC)c1OC | - | Dihydrofolate reductase | - | - | - | Cryptosporidium parvum | IC50 | 3.75 µM |
| O=C(NCc1cnc2ccccc2c1)Nc1ccsc1-c1nc(C(=O)O)c(O)c(=O)[nH]1 | - | HCV polymerase | - | - | - | Hepatitis C virus | IC50 | <25 µM |
| CCC(CC)Nc1cc(C(=O)O)ccc1N1C(=O)CCC1(CO)CCO | - | Neuraminidase | - | Subtype N2 | - | Influenza A virus | IC50 | 59 µM |

The last 7 rows once more:

O=C(Nc1ccsc1-c1nc(C(=O)O)c(O)c(=O)[nH]1)c1ccccc1Oc1ccccc1 ; protein: HCV polymerase ; organism: Hepatitis C virus ; endpoint: IC50 ; value: <25 µM
COc1ccc(NS(=O)(=O)c2ccc(N)cc2)nn1 ; protein: DHPS ; organism: Pneumocystis carinii ; endpoint: IC50 ; value: <0.05 µM
O=C(Nc1nnc(NCc2cccs2)s1)c1ccc2c(c1)C(=O)OC2=O ; protein: Polymerase ; organism: Human cytomegalovirus ; endpoint: IC50 ; value: <25 µM
Cn1c2ccccc2c2c3c(c4c5ccccc5n(CC(F)F)c4c21)CNC3=O ; protein: Tyrosine kinase ; endpoint: IC50 ; value: >10 µM
COc1cc(CNc2ccc3nc(N)nc(N)c3c2Cl)cc(OC)c1OC ; protein: Dihydrofolate reductase ; organism: Cryptosporidium parvum ; endpoint: IC50 ; value: 3.75 µM
O=C(NCc1cnc2ccccc2c1)Nc1ccsc1-c1nc(C(=O)O)c(O)c(=O)[nH]1 ; protein: HCV polymerase ; organism: Hepatitis C virus ; endpoint: IC50 ; value: <25 µM
CCC(CC)Nc1cc(C(=O)O)ccc1N1C(=O)CCC1(CO)CCO ; protein: Neuraminidase ; strain or isolate: Subtype N2 ; organism: Influenza A virus ; endpoint: IC50 ; value: 59 µM